A mixed list of measured activities; the numbers were collected in NIAID ChemDB.

All rows: toxicity to cultured cells; endpoint: CC50

An empty or dashed field is not shown. CCn: concentration that lowers growth or viability of the cells by n%. Rows are shuffled and stem from different studies.

| structure | method | cell line | result |
|---|---|---|---|
| CCO/N=C/c1ccc(OCCC2CCN(c3nc(OC)nc(OC)n3)CC2)cc1 | neutral red | MRC-5 | >0.1 µg/mL |
| Cc1ccc2nc(Nc3ccc(OCc4ccccc4)cc3)sc2c1 | MTS | Ava5 | 50 µM |
| CC(C)N(Cc1cccc(OCCCCCC(=O)OC(=O)O)c1)C(=O)c1ccccc1 | - | BJ | >20 µM |
| COc1ccc(OC)c(NC(=O)NCCc2ccc3c(n2)NCCC3)c1 | - | PBMC | 7.7 µM |
| COc1ccc(C(O)C(Br)N=[N+]=[N-])cc1OC | - | HepG2 | >20 µM |
| Nc1[nH]c(N=NC(=O)c2ccccn2)c2cccc(Sc3ccc(Cl)cc3)c12 | - | L6 | 7 nM |
| Cc1cn([C@@H]2O[C@H](CO)[C@@H](F)[C@@H]2F)c(=O)nc1N | - | HL-60 | 123 µM |
| O=C(NN1C(=O)c2ccccc2C1=O)c1ccc(-n2cccc2)cc1 | MTT | Lung adenocarcinoma cells | 254 µM |
| CC(C)(C)S(=O)(=O)C[C@@H](Cc1cccc2ccccc12)C(=O)NCCC(=O)N[C@@H](Cc1ccccc1)[C@@H](O)[C@H](O)[C@H](Cc1ccccc1)NC(=O)CCNC(=O)[C@H](Cc1cccc2ccccc12)CS(=O)(=O)C(C)(C)C | - | PBLC | >10 µM |
| CCN(CC)CCNC(=S)Nc1ccc2c(c1)Cc1cc(Br)ccc1-2 | MTS | Ava5-EG(delta4AB)SEAP | >1 µM |
| CC(C)[C@H](NC(=O)C(Cc1ccccc1)CS(=O)(=O)CCO)C(=O)N[C@@H](Cc1ccccc1)[C@@H](O)[C@H](O)[C@H](Cc1ccccc1)NC(=O)[C@@H](NC(=O)C(Cc1ccccc1)CS(=O)(=O)CCO)C(C)C | - | PBLC | >6 µM |
| CC(=O)N1c2ccccc2NC2=C(C(=O)CC(C)(C)C2)C1c1ccc(Cl)cc1Cl | - | Huh7-CMV-Luc | >32 µM |
| Cc1ccc(C)n1-c1ccc(C(=O)NN2C(=O)c3c(F)c(F)c(F)c(F)c3C2=O)cc1 | MTT | Lung adenocarcinoma cells | 260 µM |
| CCc1nc(CCC(=O)O)cnc1CCC(=O)O | MTT | A-594 | >40 µg/mL |
| CC(C)Oc1ccnc(C(=O)N=Nc2[nH]c(N)c3ccccc23)c1 | - | L6 | 699 nM |
| CC(C)[C@H](NC(=O)[C@H](Cc1cccc2ccccc12)CS(=O)(=O)C(C)(C)C)C(=O)N[C@@H](Cc1ccccc1)[C@H](O)[C@@H](O)[C@H](Cc1ccccc1)NC(=O)[C@@H](NC(=O)[C@H](Cc1cccc2ccccc12)CS(=O)(=O)C(C)(C)C)C(C)C | - | PBLC | >0.02 µM |
| CCOC(=O)CCCCCOc1cccc(CN(C(=O)c2ccc(-c3ccc4c(c3)OCCO4)cc2)C(C)C)c1 | - | RAJI | >20 µM |
| C[C@H](O)Cc1cc2c(O[C@H]3O[C@H](CO)[C@@H](O)[C@H]3O)ccc(O)c2c(=O)o1 | MTT | A-594 | >40 µg/mL |
| Cc1ccc2nc(Nc3cc(O)cc([N+](=O)[O-])c3)sc2c1 | MTS | Ava5 | 52 µM |
| Cc1ccc(C)n1-c1nc(-c2ccc(Cl)cc2Cl)cs1 | MTT | Lung adenocarcinoma cells | 232 µM |
| CCOC(=O)CNC(=O)NCCc1ccc2c(n1)NCCC2 | - | PBMC | 50 µM |
| Cc1cn([C@@H]2O[C@H](CO)[C@@H](F)[C@H]2F)c(=O)[nH]c1=O | - | HL-60 | >1000 µM |
| C[C@]1(Cn2cc(COc3ccccn3)nn2)Cn2cc([N+](=O)[O-])nc2O1 | MTT | J774 | >40 µg/mL |
| CCCC(=O)Nc1ccc2c(c1)Cc1cc(NC(N)=S)ccc1-2 | MTS | Ava5-EG(delta4AB)SEAP | >1 µM |
| C[C@]1(Cn2cc(-c3ccc(C(F)(F)F)cc3)nn2)Cn2cc([N+](=O)[O-])nc2O1 | MTT | J774 | >40 µg/mL |
| O=C(NCCCl)N1CC[N+]2(CC1)CC[N+]1(CCN(C(=O)NCCCl)CC1)CC2 | - | GMK | >90.4 µg/mL |
| O=C(CCc1ccc2c(n1)NCCC2)Nc1ccc(C(F)(F)F)cc1 | - | PBMC | 8 µM |
| Cc1ccc(C)n1-c1nc(-c2ccc(F)cc2)cs1 | MTT | Lung adenocarcinoma cells | 268 µM |
| NC(=S)Nc1cccc(OCCCCCOc2ccc(-n3ccnc3)cc2)c1 | MTS | Ava5-EG(delta4AB)SEAP | >1 µM |
| Cc1cn2c(nc1=O)OC1[C@H]2O[C@H](COC(c2ccccc2)(c2ccccc2)c2ccccc2)[C@H]1OC(=S)n1ccnc1 | - | HL-60 | >1000 µM |
| CCO/N=C/c1c(C)cc(OCCC2CCN(c3ccc(C)nn3)CC2)cc1C | neutral red | MRC-5 | >0.1 µg/mL |
| Nc1nc2c(ncn2[C@H]2C[C@H](F)[C@@H](CO)O2)c(=O)[nH]1 | - | Primary duck hepatocytes | >200 µM |
| CCc1ccc(OCc2cn(C[C@@]3(C)Cn4cc([N+](=O)[O-])nc4O3)nn2)cc1 | MTT | J774 | >40 µg/mL |
| CC(C)N(Cc1cccc(OCCCCCC(=O)OC(=O)O)c1)C(=O)c1ccc(-c2ccc3cc[nH]c3c2)cc1 | - | BJ | >20 µM |
| Cc1cn([C@@H]2O[C@H](COC(c3ccccc3)(c3ccccc3)c3ccccc3)C[C@H]2F)c(=O)nc1N | - | HL-60 | >1000 µM |
| Nc1[nH]c(N=NC(=O)c2ccccn2)c2cccc(OCC(F)(F)F)c12 | - | L6 | 120 nM |
| COc1ccc(C[C@H](CS(=O)(=O)C(C)(C)C)C(=O)N[C@H](C(=O)N[C@@H](Cc2ccccc2)[C@@H](O)[C@H](O)[C@H](Cc2ccccc2)NC(=O)[C@@H](NC(=O)[C@H](Cc2ccc(OC)cc2)CS(=O)(=O)C(C)(C)C)C(C)C)C(C)C)cc1 | - | PBLC | >0.08 µM |
| OC[C@H]1O[C@@H](n2cnc3c(CCSC4=NCCS4)ncnc32)[C@H](O)[C@@H]1O | - | Huh7 (MT-4) | >100 µM |
| O=C(NCCc1ccc2c(n1)NCCC2)NCC1(c2ccccc2)CC1 | - | PBMC | 16 µM |
| CC(C)[C@H](NC(=O)[C@H](Cc1cccc2ccccc12)CS(=O)(=O)C(C)(C)C)C(=O)N[C@@H](Cc1ccccc1)[C@@H](O)[C@H](O)[C@H](Cc1ccccc1)NC(=O)[C@@H](NC(=O)[C@H](Cc1cccc2ccccc12)CS(=O)(=O)C(C)(C)C)C(C)C | - | PBLC | >0.003 µM |
| Cc1ccc2nc(Nc3ccc([N+](=O)[O-])cc3)sc2c1 | MTS | Ava5 | 31 µM |
| Cc1cn([C@@H]2O[C@H](COC(c3ccccc3)(c3ccccc3)c3ccccc3)[C@@H](F)[C@H]2F)c(=O)[nH]c1=O | - | HL-60 | >1000 µM |
| CSc1ccc(NC(=O)NCCc2ccc3c(n2)NCCC3)cc1 | - | PBMC | 1.3 µM |
| C1CN(CC2CO2)CC[N+]2(C1)CC[N+]1(CCCN(CC3CO3)CC1)CC2 | - | K562 | 141.1 µg/mL |
| Cc1cn2c(nc1=O)O[C@H]1C[C@@H](COC(c3ccccc3)(c3ccccc3)c3ccccc3)O[C@H]12 | - | HL-60 | >1000 µM |
| CCCCCCCCCCCCCCOC(=O)NC(CCC(=O)O)(CCC(=O)O)CCC(=O)O | - | Huh7-SGcon1b | >42 µM |
| Cc1cn([C@@H]2O[C@H](COC(c3ccccc3)(c3ccccc3)c3ccccc3)C3OC32)c(=O)[nH]c1=O | - | HL-60 | >1000 µM |
| CCC(C)[C@H](NC(=O)[C@H](Cc1cccc2ccccc12)CS(=O)(=O)C(C)(C)C)C(=O)N[C@@H](Cc1ccccc1)[C@@H](O)[C@H](O)[C@H](Cc1ccccc1)NC(=O)[C@@H](NC(=O)[C@H](Cc1cccc2ccccc12)CS(=O)(=O)C(C)(C)C)C(C)CC | - | PBLC | >0.01 µM |
| CN1CCC(NC(=O)NCCc2ccc3c(n2)NCCC3)CC1 | - | PBMC | 50 µM |
| C[C@]1(Cn2cc(COc3ccccc3F)nn2)Cn2cc([N+](=O)[O-])nc2O1 | MTT | J774 | >40 µg/mL |
| Clc1ccc(-c2csc(-n3cccc3)n2)cc1 | MTT | Vero cells | 242 µM |
| Cc1ccc2nc(Nc3cc(O)cc(C(=O)O)c3)sc2c1 | MTS | Ava5 | 400 µM |
| CCOC(=O)CCCCOc1ccccc1NC(C)C | - | BJ | >20 µM |
| NC(=S)Nc1cccc(OCCCCCOc2ccccc2C(=O)Oc2ccccc2)c1 | MTS | Ava5-EG(delta4AB)SEAP | >1 µM |
| Cc1ccc2nc(Nc3cccc([N+](=O)[O-])c3)sc2c1 | MTS | Ava5 | 303 µM |
| C[C@]1(Cn2cc(-c3ccc(F)cc3F)nn2)Cn2cc([N+](=O)[O-])nc2O1 | MTT | J774 | >40 µg/mL |
| O=C(NCCc1ccc2c(n1)NCCC2)Nc1ccc(F)nc1 | - | PBMC | 27 µM |
| Nc1[nH]c(N=NC(=O)c2ccccn2)c2ccc3ccccc3c12 | - | L6 | 54 nM |
| CCOc1ccc(-c2nc3ccc(-c4ccc5nc(-c6ccc(OCC)cc6)[nH]c5c4)cc3[nH]2)cc1 | sulforhodamine | WI38 human lung fibroblasts | 0.53 µg/mL |
| CC(CCC(=O)N[C@@H](Cc1ccc(O)cc1)C(=O)O)C1CCC2C3CCC4C[C@H](O)CCC4(C)C3C[C@H](O)C12C | XTT | VK2/E6E7 | 119.5 µg/mL |
| Nc1[nH]c(N=NC(=O)c2ccccn2)c2c(Sc3ccc(Cl)cc3)cccc12 | - | L6 | 114 nM |
| CCOC(=O)CCCCCOc1cccc(C=O)c1 | - | HEK 293 | >20 µM |
| OC[C@H]1O[C@@H](n2cnc3c(/C=C/N4CCSC4)ncnc32)[C@H](O)[C@@H]1O | - | Huh7 (MT-4) | 7 µM |
| NN1CC[N+]2(CC1)CC[N+]1(CCN(N)CC1)CC2 | - | K562 | 187 µg/mL |
| COc1ccc(OCCCCCOc2cccc(NC(N)=S)c2)cc1 | MTS | Ava5-EG(delta4AB)SEAP | >1 µM |
| CC(C)[C@H](NC(=O)[C@H](Cc1cccc2ccccc12)CS(=O)(=O)C(C)(C)C)C(=O)N[C@@H](Cc1ccc2c(c1)OCO2)[C@@H](O)[C@H](O)[C@H](Cc1ccc2c(c1)OCO2)NC(=O)[C@@H](NC(=O)[C@H](Cc1cccc2ccccc12)CS(=O)(=O)C(C)(C)C)C(C)C | - | PBLC | >0.02 µM |
| Cc1cn2c(nc1=O)O[C@@H]1[C@H](F)[C@H]2O[C@@H]1COC(c1ccccc1)(c1ccccc1)c1ccccc1 | - | HL-60 | >1000 µM |
| O=C(NCCc1ccc2c(n1)NCCC2)Nc1ccc(Br)cc1 | - | PBMC | 1.2 µM |
| c1ccc(-c2csc(-n3cccc3)n2)cc1 | MTT | Lung adenocarcinoma cells | 231 µM |
| NC(=S)Nc1cccc(OCCCCCCc2cccc3ccccc23)c1 | MTS | Ava5-EG(delta4AB)SEAP | >1 µM |
| CCN(CC)S(=O)(=O)c1cccc2c(N=NC(=O)c3ccccn3)[nH]c(N)c12 | - | L6 | 31 nM |
| CCCN(CCC)c1ccc2c(c1)Cc1cc(NC(N)=S)ccc1-2 | MTS | Ava5-EG(delta4AB)SEAP | >1 µM |
| Cc1nc(N2CCCC2)c([N+](=O)[O-])c(N2CC[N+]3(CC2)CC[N+]2(CCN(c4nc(C)nc(N5CCCC5)c4[N+](=O)[O-])CC2)CC3)n1 | - | K562 | >281.8 µg/mL |
| CO/N=C/c1cccc(OCCC2CCN(c3ccc(Cl)nn3)CC2)c1 | visual reading | MRC-5 | 1 µg/mL |
| CCOC(=O)CCCCCOc1cccc(CN(C(=O)c2ccc(Br)cc2)C(C)C)c1 | - | RAJI | >20 µM |
| O=C(NCCc1ccc2c(n1)NCCC2)N1CCCCC1 | - | PBMC | 50 µM |
| Cc1ccc(C)n1-c1nc(-c2ccc(Br)cc2)cs1 | MTT | Vero cells | 257 µM |
| CO/N=C/c1ccc(OCCC2CCN(c3ccc(C)nn3)CC2)c(C)c1C | neutral red | MRC-5 | >0.1 µg/mL |